# Assay results as given in US20160258954A1, “METHOD OF DIAGNOSING AND TREATING EPSTEIN BARR VIRUS-BASED MYALGIC ENCEPHALOMYELITIS CHRONIC FATIGUE SYNDROME PATIENTS USING A SERUM ANTIBODY ASSAY” (CFS, LLC, priority 2015, published 2016).
# B1: BMRF1: recombinant EBV DNA polymerase processivity factor, EA-D polymerase accessory subunit, yeast derived antigen (protein, UniProt P03191 1-404, looked up)
# DNA polymerase processivity …: METTQTLRFKTKALAVLSKCYDHAQTHLKGGVLQVNLLSVNYGGPRLAAVANAGTAGLISFEVSPDAVAEWQNHQSPEEAPAAVSFRNLAYGRTCVLGKELFGSAVEQASLQFYKRPQGGSRPEFVKLTMEYDDKVSKSHHTCALMPYMPPASDRLRNEQMIGQVLLMPKTASSLQKWARQQGSGGVKVTLNPDLYVTTYTSGEACLTLDYKPLSVGPYEAFTGPVAKAQDVGAVEAHVVCSVAADSLAAALSLCRIPAVSVPILRFYRSGIIAVVAGLLTSAGDLPLDLSVILFNHASEEAAASTASEPEDKSPRVQPLGTGLQQRPRHTVSPSPSPPPPPRTPTWESPARPETPSPAIPSHSSNTALERPLAVQLARKRTSSEARQKQKHPKKVKQAFNPLI
# modifications: yeast-expressed recombinant
# notes: recombinant EBV DNA polymerase processivity factor, EA-D polymerase accessory subunit, yeast derived antigen
# B2: BLLF3A: recombinant EBV dUTPase, deoxyuridine triphosphatase antigen, yeast-derived (protein, UniProt P03195 1-278, looked up)
# Deoxyuridine 5'-triphosphate …: MEACPHIRYAFQNDKLLLQQASVGRLTLVNKTTILLRPMKTTTVDLGLYARPPEGHGLMLWGSTSRPVTSHVGIIDPGYTGELRLILQNQRRYNSTLRPSELKIHLAAFRYATPQMEEDKGPINHPQYPGDVGLDVSLPKDLALFPHQTVSVTLTVPPPSIPHHRPTIFGRSGLAMQGILVKPCRWRRGGVDVSLTNFSDQTVFLNKYRRFCQLVYLHKHHLTSFYSPHSDAGVLGPRSLFRWASCTFEEVPSLAMGDSGLSEALEGRQGRGFGSSGQ
# modifications: yeast-expressed recombinant
# notes: recombinant EBV dUTPase, deoxyuridine triphosphatase antigen, yeast-derived
# Test system: serum antibody of EBV CFS positive versus negative/healthy sera
# Test: Luminex antigen-bead serum antibody assay (specificity of EBV recombinant antigens)
# Type: binding, human
# Conditions: for signal differential between negative and positive serum samples: Reference Serum Test, all concentrations tested; for signal differential between known EBV positive and other samples (negative and healthy sera): summary incl. healthy serum test
molecule,measurement,value
"BALF5: recombinant EBV DNA polymerase catalytic subunit antigen, yeast derived",signal differential between negative and positive serum samples,do not
same,signal differential between known EBV positive and other samples (negative and healthy sera),no signal differential was observed
B1,signal differential between negative and positive serum samples,produces a signal differential
same,signal differential between known EBV positive and other samples (negative and healthy sera),differential signal in every serum sample tested
B2,signal differential between negative and positive serum samples,do not
same,signal differential between known EBV positive and other samples (negative and healthy sera),no signal differential was observed
